Values quoted from earlier work, collected in patent US4923852A, “Aminoalkyl naphthalenediols as host resistance enhancers against viral infections” (Merck & Co., Inc., priority 1987, dated 1990).

Tested on: AIDS or AIDS-related complex (ARC)
Conditions: clinical; cited from earlier work

In the case of “Interleukin-2: Protein made by white blood cells that mediates production of interferon”, the “efficacy in AIDS or ARC patients” value is given as “not encouraging”.
